Results published in paper PMC9104152, “Phosphoproteomics Unravel HBV Triggered Rewiring of Host Phosphosignaling Events” (International Journal of Molecular Sciences, 2022).

B1: Q99956 1xPhospho [S328(100)] (protein, UniProt Q99956 1-384, looked up)
Dual specificity protein …: MEGLGRSCLWLRRELSPPRPRLLLLDCRSRELYESARIGGALSVALPALLLRRLRRGSLSVRALLPGPPLQPPPPAPVLLYDQGGGRRRRGEAEAEAEEWEAESVLGTLLQKLREEGYLAYYLQGGFSRFQAECPHLCETSLAGRAGSSMAPVPGPVPVVGLGSLCLGSDCSDAESEADRDSMSCGLDSEGATPPPVGLRASFPVQILPNLYLGSARDSANLESLAKLGIRYILNVTPNLPNFFEKNGDFHYKQIPISDHWSQNLSRFFPEAIEFIDEALSQNCGVLVHCLAGVSRSVTVTVAYLMQKLHLSLNDAYDLVKRKKSNISPNFNFMGQLLDFERSLRLEERHSQEQGSGGQASAASNPPSFFTTPTSDGAFELAPT
modifications: phosphorylated S328
B2: Q99956 1xPhospho [S328(99.7)] (protein, UniProt Q99956 1-384, looked up)
Dual specificity protein …: B1 Dual specificity protein …
modifications: phosphorylated S328
B3: Q56P03 2xPhospho [S109(100); S111(100)] (protein, UniProt Q56P03 1-285, looked up)
E2F-associated phosphoprotein: MNRLPDDYDPYAVEEPSDEEPALSSSEDEVDVLLHGTPDQKRKLIRECLTGESESSSEDEFEKEMEAELNSTMKTMEDKLSSLGTGSSSGNGKVATAPTRYYDDIYFDSDSEDEDRAVQVTKKKKKKQHKIPTNDELLYDPEKDNRDQAWVDAQRRGYHGLGPQRSRQQQPVPNSDAVLNCPACMTTLCLDCQRHESYKTQYRAMFVMNCSINKEEVLRYKASENRKKRRVHKKMRSNREDAAEKAETDVEEIYHPVMCTECSTEVAVYDKDEVFHFFNVLASHS
modifications: phosphorylated S109, S111
B4: Q56P03 2xPhospho [S109(99.4); S111(100)] (protein, UniProt Q56P03 1-285, looked up)
E2F-associated phosphoprotein: B3 E2F-associated phosphoprotein
modifications: phosphorylated S109, S111
B5: P24534 1xPhospho [S106(100)] (protein, UniProt P24534 2-225, looked up)
Elongation factor 1-beta: GFGDLKSPAGLQVLNDYLADKSYIEGYVPSQADVAVFEAVSSPPPADLCHALRWYNHIKSYEKEKASLPGVKKALGKYGPADVEDTTGSGATDSKDDDDIDLFGSDDEEESEEAKRLREERLAQYESKKAKKPALVAKSSILLDVKPWDDETDMAKLEECVRSIQADGLVWGSSKLVPVGYGIKKLQIQCVVEDDKVGTDMLEEQITAFEDYVQSMDVAAFNKI
modifications: phospho S106

Tested on: HepG2-NTCP cells
Assay: TMT-based phosphoproteome profiling of HBV-infected vs mock HepG2-NTCP (HBV/mock ratio)
Parameters: species or system human
Conditions: phosphosite abundance ratio of host protein, HBV-infected vs mock HepG2-NTCP, 7dpi, sheet Up-regulated

Row | Molecule | HBV/mock
1 | B1 | 1.364
2 | B2 | 1.337
3 | B3 | 1.395
4 | B4 | 1.319
5 | B5 | 1.347
